Compound potency records, mixed from different reports. Data source: NIAID ChemDB in PubChem.

All rows: toxicity to cultured cells; cell line: MDBK; endpoint: CC50

Rows are shuffled and stem from different studies. An empty or dashed field is not shown. CCn: concentration that lowers growth or viability of the cells by n%.

| SMILES | read by | value |
|---|---|---|
| Clc1cccc(-c2nc3ccn(Cc4ccc(Br)cc4)cc-3n2)c1 |  | 62 µg/mL |
| CCOC(=O)c1c(CSc2ccccc2)n(C)c2cc(Br)c3c(c12)CN(C)CO3 | ATP | 17.5 µM |
| O=C1Nc2ccc([N+](=O)[O-])cc2/C1=N/N=C1/SCC(=O)N1C1CCCCC1 |  | 3 µg/mL |
| CCCN(CCC)CCSc1nnc2c(n1)[nH]c1ccccc12 | crystal violet | >90 µM |
| CCOC(=O)c1c(CSc2ccccc2)n(C)c2cc(C#N)c(O)c(CN(N(C)C)N(C)C)c12 | ATP | 68.3 µM |
| Fc1cccc(F)c1-c1nc2ccn(CCc3ccccc3)cc-2n1 |  | 60 µg/mL |
| CC(=O)O[C@H]1C[C@H](n2cc(C#CI)c(=O)[nH]c2=O)O[C@@H]1CO | neutral red | >100 µM |
| COc1cc2c(c3c1C[C@]1(C)[C@@H](C)CC[C@H]4C(C)(C)[C@@H](OC(C)=O)CC[C@]41O3)CNC2=O |  | 23 µM |
| CCOC(=O)c1c(CSc2cccs2)n(C)c2cc(Br)c3c(c12)CN(C)CO3 | ATP | 1 µM |
| CC(=O)O[C@@H]1C[C@@H](CO)O[C@H]1n1cc(/C(Br)=C\I)c(=O)[nH]c1=O | neutral red | >100 µM |
| Clc1ccccc1-c1nc2ccn(Cc3ccc(Br)cc3)cc-2n1 |  | >100 µg/mL |
| COc1cc(OC)c2c(=O)c3cc(N)c(Cl)cc3n(C)c2c1 |  | 83 µg/mL |
| CCOC(=O)c1c(CSc2ccccc2)n(C)c2cc(-c3cccnc3)c3c(c12)CN(C)CO3 | ATP | 52.2 µM |
| CC1S/C(=N/N=C2\C(=O)Nc3ccc([N+](=O)[O-])cc32)N(c2ccc(Br)cc2)C1=O |  | >50 µg/mL |
| C[C@H]1CC[C@H]2C(C)(C)C(=O)CC[C@]23Oc2c(c(O)cc4c2CNC4=O)C[C@]13C |  | 98 µM |
| Brc1ccc(Cn2ccc3nc(CSc4ccccc4)nc-3c2)cc1 |  | 31.7 µg/mL |
| O=[N+]([O-])c1ccc2c(c1)c(N=NC(=S)Nc1ccccc1)c(O)n2CN1CCOCC1 |  | >50 µg/mL |
| Fc1ccc(Cn2ccc3nc(-c4ccccc4)nc-3c2)cc1 |  | 50 µg/mL |
| COc1ccc2c(c1)[C@@H]1C[C@]1(C(=O)N1[C@@H]3CC[C@H]1CN(C)C3)Cn1c-2c(C2CCCCC2)c2ccc(C(=O)NS(=O)(=O)N(C)C)cc21 | resazurin | 43 µM |
| O=[N+]([O-])c1ccc2[nH]c(O)c(N=NC(=S)Nc3ccc(Cl)cc3)c2c1 |  | 19 µg/mL |
| C[C@H]1CC[C@H]2C(C)(C)[C@@H](O)CC[C@]23Oc2c(c(O)cc4c2CNC4=O)C[C@]13C |  | 65 µM |
| CC(=O)O[C@@H]1C[C@@H](CO)O[C@H]1n1cc(/C(Cl)=C\I)c(=O)[nH]c1=O | neutral red | >100 µM |
| CCCCNC(=S)N=Nc1c(O)[nH]c2ccc([N+](=O)[O-])cc12 |  | >50 µg/mL |
| CC12CCC(CC1)C(C)(C)O2 | MTT | 3000 µg/mL |
| CN[C@H](CC(C)C)C(=O)N[C@H]1C(=O)N[C@@H](CC(N)=O)C(=O)N[C@H]2C(=O)N[C@H]3C(=O)N[C@H](C(=O)N[C@H](C(=O)C(=O)CNOCc4ccc(Cc5ccccc5)cc4)c4cc(O)cc(O)c4-c4cc3ccc4O)[C@H](O[C@H]3C[C@](C)(N)[C@@H](O)[C@H](C)O3)c3ccc(cc3)Oc3cc2cc(c3O[C@@H]2O[C@H](CO)[C@@H](O)[C@H](O)[C@H]2O[C@H]2C[C@](C)(N[NH2+][O-])[C@@H](O)[C@H](C)O2)Oc2ccc(cc2Cl)C1O |  | ≥300 µM |
| CCOC(=O)c1c(CSc2ccccc2)n(C)c2cc(N=[N-])c3c(c12)CN(C)CO3 | ATP | 19.9 µM |
| Cn1c2cc(Cl)c(N)cc2c(=O)c2c(O)cc(O)cc21 |  | >100 µg/mL |
| Cc1ccc(NC(=S)N=Nc2c(O)n(CN3CCOCC3)c3ccc([N+](=O)[O-])cc23)cc1 |  | 21 µg/mL |
| CC(=O)O[C@@H]1[C@H](OC(C)=O)[C@@H](CO)O[C@H]1n1cc(/C(I)=C\I)c(=O)[nH]c1=O | neutral red | >100 µM |
| CC(=O)O[C@H]1CC[C@@]23Oc4c(c(O)cc5c4CNC5=O)C[C@]2(C)[C@@H](C)CC[C@H]3C1(C)C |  | 44 µM |
| CC(C)NC(=O)[C@@H]1[C@H](O)[C@@H](O)CN1C(=O)c1ccoc1 | visual reading | >300 µM |

Again, the opening 3 rows:

SMILES | read by | value
Clc1cccc(-c2nc3ccn(Cc4ccc(Br)cc4)cc-3n2)c1 |  | 62 µg/mL
CCOC(=O)c1c(CSc2ccccc2)n(C)c2cc(Br)c3c(c12)CN(C)CO3 | ATP | 17.5 µM
O=C1Nc2ccc([N+](=O)[O-])cc2/C1=N/N=C1/SCC(=O)N1C1CCCCC1 |  | 3 µg/mL